Test results published in patent US6194143A, “Substrates for human cytomegalovirus protease” (Boehringer Ingelheim (Canada) Ltd., priority 1998, dated 2001).
Square brackets hold non-standard residues; d marks the D form. Peptide text beside a SMILES is read from it. Tyr(3-NO2) = N[C@@H](Cc1ccc(O)c([N+](=O)[O-])c1)C(=O)O; 2Abz = Nc1ccccc1C(=O)O

Experiment: Internal fluorescence quenching and inner filter effect of substrate
Type: physicochemical
Settings: excitation at 312 nm and emission at 415 nm

CC(C)C[C@H](NC(=O)[C@H](CCCNC(=N)N)NC(=O)[C@H](CO)NC(=O)[C@H](CO)NC(=O)[C@H](C)NC(=O)[C@H](CC(N)=O)NC(=O)[C@@H](NC(=O)[C@@H](NC(=O)c1ccccc1N)C(C)C)C(C)C)C(=O)N[C@@H](Cc1ccc(O)c([N+](=O)[O-])c1)C(=O)N[C@@H](CCCNC(=N)N)C(=O)O [Substrate 1] (H-[2Abz]VVNASSRL[Tyr(3-NO2)]R-OH)
ratio F0/F∞ (internal fluorescence quenching): ≈ 4%
